Experiment [1] has as its target ΔN11, N-terminal 11 AA truncated AgsA, His-tagged (Salmonella enterica serovar Typhimurium). The experiment in a line: SEC; data not shown; run at 42°C. On the technique in general: In gel filtration, larger molecules generally elute earlier.
For experiment [2] the target is unchanged. Briefly: SEC; data not shown; run at 25°C.
Experiment [3] shares this target. The experiment in a line: SEC; data not shown; run at 50°C.

Consider one substance from PMC2920228, “Investigation of the chaperone function of the small heat shock protein — AgsA” (2010).

A word on the stoichiometry N: it is a count of units in the complex or per binding partner. As for “ΔN11, N-terminal 11 AA truncated AgsA, His-tagged (domain or fragment)”, the results for the stoichiometry N in experiment [1], in experiment [2] and in experiment [3] were 6 subunits, 21 subunits and 2 subunits, respectively.
